We go through 9 sequences from publication PMC12061854.

Sequences of proteins named here, by UniProt entry; tags and fusion partners are left off. A change or cut given only in a name is not applied to a line headed by its entry.
UniProt O54294: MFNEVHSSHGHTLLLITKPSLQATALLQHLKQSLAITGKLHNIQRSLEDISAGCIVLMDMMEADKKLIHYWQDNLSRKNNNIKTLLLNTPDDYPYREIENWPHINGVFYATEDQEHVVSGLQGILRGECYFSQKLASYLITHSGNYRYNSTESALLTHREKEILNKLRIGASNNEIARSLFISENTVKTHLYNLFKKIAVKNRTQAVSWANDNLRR

Construct, isoform or probe ends are uncertain for at least one entry.

The target of this series is CsgD (UniProt O54294). As to the kind of experiment: EMSA. Conditions: recombinant protein; residues 1-216; probe letters rebuilt from the primers and the genome.
For the sequence “AAACCATTCAGGCAGTCGCACAACACACCCGCCATCCGCTCTCATTTCACCTGATGGTCTCATCACCGCAACGCTGGCTACCCTGGCTTGCAGCTATCCGCCCCGGCTGGATTTTCATTCATGCCGAAAGCGTGCAAAACCCCCCGGAGATTCTGGCGGATATTCGCGCTATCGGGGCGAAAGCAGGACTGGCGCTTAACCCGGCAACGCCGCTATTGCCTTATCGTTATCTGGCATTGCAACTGGATGCGCTGATGATCATGACCAGCGAACCCGACGGACGCGGACAGCAATTTATCGCCGCGATGTGTGAAAAAGTGAGCCAGGGCAGAGAGCATTTCCCTGCTGCGGAATGCTGGGCGGACGGCGGTATTACACTTCGCGCCGCACGGCTGCTTGCCGCCGCAGGCGCACAGCATCTGGTGATTGGCCGGGCGTTATTCACGACGGCGAACTATGATGTGACGTTGTCACAATTCACCGCGCTATAAAGGAGTCAT (double strand) [orf02401 promoter]”, the binding result was “binds”.

With “CGTTTCACCCTTGCTCGCGAGGTCCCGGTTTAACTTTAGACGCTCTTTTACGAACCAGGAAGTTTTGCCTGTTTTTTATGCATTAAAACGCGAAGTAGCGGGTTGCGGCGGGGTGTTTAAGTGATCGTATTCACGAATTCATATTTTTATGCAACAGTTCAAAGAAAGTTAATCGTACTCAATGTATGTTACGCGCTTTTAATTGAAGTGTGGTTTGCGGGTATGTACGAGTTTAATCTGGTGTTGCTGCTGCTTCAGCAGATGTGCGTGTTTCTGGTCATTGCGTGGCTAATGAGTAAAACGCGTCTGTTCATCCCGCTTATGCAGGTCACGGTTCGTCTGCCGCACAAGCTTCTGTGTTACGTCACGTTTTCTATCTTCTGCATCATGGGCACTTATTTTGGGCTGCATATCGAAGATTCGATTGCCAATACCCGCGCAATTGGCGCGGTGATGGGCGGCCTACT (double strand) [orf01644 promoter]”, the binding result is listed as “binds”. Then “GCTCTCTCCTTAATAACGTCTATTTGACGTATTAAGTCTGGCCGCTATTTTTAGTTTTTACAAACATGAATTTACCCGCAGAATATTAAGCAATAAAATCAACCCATCCGGATTAATATGCAACCGACATCAGCACCGGTGAGCGCGAAAGCGTAACGGCGTAATAGAGAACTTGCCACATAGCTGAAGTCATATGCATCAACGTTTTGATAGCAATTCAGATTAATCGGCTTTATTTTTTGAGGATAATGGCCTTACGCATAATCAATGACAGTCATCGCCGTAAGAAAGTAAGCAAGTTATGCAACAGCGGGTTTGTTGGTAACTGGATAAAATAATCATTCACTGACAATGTCATAAAATAAATATGCCATACTTGAGAAGAACGAACAGATTTCTTTTGTCTCTGGTAACGGAAAAATAAACG (double strand) [orf02298 promoter]”, with “binds”. As for “AGTTATTTAAGTATTTTCTAAATTTAGTTAATTCTAAAATAAACATCAACCTGATGCCAGCGTAAAAAGCGTAAAGGAGGGTAAAAGCGCGGCGCGCGACTGGCAGGCTCAGGTAAACTGACTATGCTTAGAGATAAAATCTCTTTTTAAACAATGACTAATTTTGCTTGTATGGAGTGTATATGGGTTTCTGGAGAATTGTATTTACGATTATTTTGCCTCCGCTCGGCGTACTTTTAGGAAAAGGGTTCGGTTGGGCATTTATCCTTAATATCCTGCTGACATTACTCGGATATATTCCGGGGCTTATCCACGCATTTTGGGTTCAGATGCGTCATTAATTACCGGCCACCGGCGGCGCATAAGCGCCGCTTATCAGGATAACCTCATTCCCTCTGCTACACTTTTCTTTGTGTGTATTTTTGACAAGCGAGGTGAAT (double strand) [orf01076 promoter]”, the entry is “binds”. For the sequence “ATCGACCGGCAGATAAAACCACAATTTGGGTTTGTTGACGCCATCGACCAGCAGCCAGCAATTTGGAACCTGAGTTACCGGCACCCACGCTTTAAACTGCGGATTGACCTTAAACGGATAAGGGTGATCGTCGAGAAAGACGTTGAAAAGCTCGCCGGAATGAATAAGTAACGCATCCAGCTTAAAGCGCGCCAGAACATCGCGCGTCCGTTCTTGTAAGGTAACAATATGATTTTTATAGAGCGCGGCCAGTGATTCCATTTTTTACCCTTCTGTTTTTTTGACCTCAAGTTTCCGCATCTTAGCACATCGCCCCACGAGAGCGTGATCTCTGCCGAGCGTGATCACATCGGCATTTCTTCAATCATTTATTTGCATTTTATTAACACAAAATACACACTTCGCTTCATCTGGTACGACCAGATCACCTTGTGGATTCAGGAGACTGAC (double strand) [orf04582 promoter]”, the binding result is given as “binds”. As for “TGTATATCCTGCTTTTCTTTAGCCACATAAGCCAAAGCGCCCGTCAAAGGCATTGGCCGGGTGGTGAAATTGTGTTCGCGCGTCCCATAGCGCGACAATACGCTATTGCAAATGCAAATAGTTATCAATAATATTATCAATATATTTCACCTTTTATATACAAAATTCATAATAAACACAGGGTTATAATGAAAGAGGCGCTGGCAACGGGAAGTAAGGCCTGGTGGAGGACGAAAACCGGGCCGGAATGGATACGGGAAAAAGACGGAAATTATCGGGTCACTTTTTGGTGGCGCGACCCGCAGGGAAACGAAACACACTCCCCGATACGGCGTGTCTGGGTCTACATCACTGGCGTAACCGATCATCATCAAAACGCGCAGCCTCAGACGATGGCGCGTATTGCCGGAACGGATGTCTGGCGCTGGAGTACGGCGCTTAGCGCTAACTGGCGCGGCAGCTACTGTTTTATTCCTACCGAACGCGATGACGTTTTTGCC (double strand) [orf03345 promoter]”, the entry is “binds”. Then “ACCTCACGCCCAACATTTCCGTTAAGCAAACTTAAAGCCGCTCCTGTACCATATTTTTTCCGACGTGTATTAAACTGGTATTTAATAAGCTCATGCATAATGATACCTTTTGTTAAAGTTTATTTATTGAAATAATATGTTTTTGGCAATTATTGAGTAGAAACAAGTAAAGAACTCGCGTTTTGTGGCTGTAGTAGTGGTTATCCTCACTTTAATAAACCGTACTGATAAAAGAGCCGCACAATATCTATTACGTCCTTTTCTTTATTCCACTGATTATGATAGTACTATGCTTATTGCTGTTAAATGGCGCGAAAATGCCCATCGTCGTGCAATTTTCACCTTTTTTTAACGACCTGGACGCGGCAAAATTGCGCACAGTGATAGTCATCACATTAAAGAGGTTATTTGCGAT (double strand) [orf01550 promoter]”, with “binds”.

As to “TAAGACAAATTACACTCTTAAACTTTCAACGAATGGTCATTTAGTGGAAATCTTCGAGAAAAATGGTTCTGATGGTGTAATTATCAGACCATTAACCATGAAGATATAATAAGCAGCATTTACACCCCAAAAAAATGCAGTAAGATAGCTACAAAACTAATCTCTATTGCAATGAGGCCAAGTTAAATATGTAAATATTTAGATGCCAGGCGCTGACTCTCTCTGCACCAGGATATACGGCAGCGTCCATTCGATAATCACGGTTAGTTATAACAATATTATTACCAACATGTCAGTTATTTAAAGCACAGGCATAAGCTAAATAATCAAATGTTAAAAACATATAAACCCGAGCCCGTAGAATATGACATTAAGCTCATAATAAAAGCTCAACCTGACCGTTAGTACTAACAGCAGAATTACTGAAACAGTAGATTCTATCCTAACGACTTGTATTAGTTATTATAACTTTTCACCCTGTAAGAGAATACACTATTATC (double strand) [orf00995 promoter]”, the binding result is given as “binds”. Take “GCGTCATTTTCAGGTAAGAAACATCAAACTGGGAGAACGCTCGCAGAAGCGAAAAGAAGGAAAACAGGGTGTAGAGTGCGCCAAAAGGGGGAGGAAAACGTGAAAATTTTTCAGTTGCTAATTTTTCTTATAAAAAACAAAGCACTTTTAGGCATTCACCTGCATTATCTGAAACGTGGTTAAAAAAATATCTTGTGCTATTGGCAAAACCTATGGTAACTCTTTAGGTATTCCTTCGAACAAGATGCAAGAATAGACAAAAATGACAGCCCTTCTACGAGTGATTAGCCTGGTCGTGATTAGCGTGGTGGTGATTATTATCCCACCGTGCGGGGCTGCACTTGGACGAGGAAAGGCTTAGAAATCAAGCCTTAACGAACTAAGACCCCCGCACCGAAAGGTCCGGGGGTTTTTTTTGGCCTGAAAAACTTAAGCGAGGAGCAGAGCGTGAATAACAGCATAAAGTTCTGTTTCTCAAGATTTACGACGGGGATGTAACT (double strand) [orf04655 promoter]”: the binding result was “binds”.
